## Positions that govern dimerization of the HIV-1 5' RNA

Data from the supplement of Ye et al. 2022, doi:10.1038/s41594-022-00746-2.

RNA: 5' end of the HIV-1 NL4-3 genome, made in vitro. Positions 1-437 read:
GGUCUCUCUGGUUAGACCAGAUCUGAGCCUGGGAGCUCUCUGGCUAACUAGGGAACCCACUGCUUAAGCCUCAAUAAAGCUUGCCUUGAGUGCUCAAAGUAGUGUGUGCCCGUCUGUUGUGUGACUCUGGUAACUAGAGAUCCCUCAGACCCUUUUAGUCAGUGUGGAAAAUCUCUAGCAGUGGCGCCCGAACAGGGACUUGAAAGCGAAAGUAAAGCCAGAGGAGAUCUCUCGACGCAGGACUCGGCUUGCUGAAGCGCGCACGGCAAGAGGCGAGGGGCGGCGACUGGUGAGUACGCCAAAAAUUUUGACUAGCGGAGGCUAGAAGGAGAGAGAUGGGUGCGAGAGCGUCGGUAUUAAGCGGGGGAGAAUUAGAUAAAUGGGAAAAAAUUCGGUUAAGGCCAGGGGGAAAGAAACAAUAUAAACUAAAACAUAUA

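Randomly mutated transcripts starting with one, two or three G (1G, 2G, 3G), capped or uncapped, were folded for 30 min at 37 °C. Monomer and dimer bands were cut from native gels after folding in high salt (300 mM KCl, 5 mM MgCl2) or low salt (40 mM KCl, 0.1 mM MgCl2). Mutation frequencies in the two bands give Kdimer.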

Values are log2 Kdimer, the median over the changes at each position: higher means that changes there hinder dimer formation, below 0 that they favour it. One numbering serves 1G, 2G and 3G. A position is written with its base where known. The source gives no letters past position 437.

| # | position | 3G uncapped high-salt | 1G capped low-salt | 3G uncapped low-salt |
|---|---|---|---|---|
| 1 | G88 | 0.37 | -0.08 | -0.24 |
| 2 | A303 | 0.03 | 0.02 | 0.04 |
| 3 | U230 | 0.30 | 0.62 | 0.83 |
| 4 | A138 | 0.02 | 0.58 | 0.48 |
| 5 | G102 | 0.05 | -0.10 | -0.26 |
| 6 | A389 | -0.02 | -0.04 | -0.03 |
| 7 | 439 | 0.03 | -0.03 | -0.05 |
| 8 | A78 | -0.07 | 0.05 | -0.17 |
| 9 | G366 | 0.12 | 0.16 | 0.21 |
| 10 | G285 | 1.17 | 1.30 | 1.69 |
| 11 | 510 | -0.01 | -0.02 | -0.05 |
| 12 | U37 | -0.36 | -0.22 | -0.59 |
| 13 | G290 | 0.38 | 0.03 | 0.44 |
| 14 | C175 | -0.02 | -0.24 | -0.37 |
| 15 | G354 | -0.10 | -0.76 | -0.11 |
| 16 | G35 | -0.52 | -0.55 | -0.87 |
| 17 | U201 | 0.07 | 0.03 | 0.01 |
| 18 | A222 | 0.21 | 0.45 | 0.78 |
| 19 | C322 | 0.34 | 0.48 | 0.75 |
| 20 | 451 | 0.17 | 0.01 | -0.22 |
| 21 | A399 | 0.08 | 0.01 | 0.13 |
| 22 | U163 | 0.02 | 0.12 | 0.15 |
| 23 | A73 | 0.06 | 0.13 | -0.10 |
| 24 | 473 | -0.04 | -0.04 | 0.00 |
| 25 | 509 | 0.07 | -0.07 | -0.05 |
| 26 | 504 | -0.03 | -0.01 | 0.12 |
| 27 | C23 | 0.00 | -0.53 | 0.02 |
| 28 | U434 | -0.03 | 0.13 | -0.15 |
| 29 | G408 | -0.01 | 0.01 | 0.02 |
| 30 | G266 | 6.36 | 2.82 | 4.38 |
| 31 | C109 | -0.21 | 0.59 | 1.45 |
| 32 | A390 | 0.06 | -0.03 | -0.16 |
| 33 | A268 | 2.87 | 2.56 | 3.36 |
| 34 | A216 | -0.16 | -0.43 | -0.57 |
| 35 | G346 | 0.14 | 0.08 | 0.61 |
| 36 | U307 | 0.07 | -0.13 | -0.08 |
| 37 | C60 | 0.22 | 0.24 | 0.07 |
| 38 | 492 | 0.08 | 0.09 | -0.01 |
| 39 | 458 | 0.11 | 0.01 | 0.05 |
| 40 | A157 | 0.12 | -0.01 | 0.01 |
| 41 | G121 | -0.11 | -0.57 | -0.36 |
| 42 | 501 | 0.11 | -0.16 | 0.07 |
| 43 | U228 | 0.06 | 0.17 | -0.03 |
| 44 | U22 | 0.05 | -0.17 | 0.07 |
| 45 | C127 | 0.33 | 0.40 | 0.87 |
| 46 | 455 | -0.06 | -0.06 | 0.13 |
| 47 | A55 | 0.04 | 0.17 | 0.08 |
| 48 | 443 | 0.13 | 0.06 | 0.01 |
| 49 | G123 | 0.11 | -0.36 | -0.14 |
| 50 | 511 | 0.04 | 0.09 | -0.06 |
| 51 | 461 | 0.01 | 0.08 | -0.06 |
| 52 | C110 | 0.49 | 0.71 | 1.35 |
| 53 | 453 | 0.02 | 0.04 | 0.19 |
| 54 | C238 | 1.96 | 2.14 | 2.26 |
| 55 | G350 | -0.03 | 0.07 | 0.23 |
| 56 | G279 | 0.39 | 0.04 | -0.33 |
| 57 | C258 | 6.19 | 3.66 | 3.55 |
| 58 | A98 | -0.12 | 0.16 | -0.23 |
| 59 | U244 | 0.40 | 1.48 | 2.39 |
| 60 | C151 | -0.01 | -0.16 | -0.07 |
| 61 | 495 | -0.02 | -0.02 | 0.18 |
| 62 | A97 | 0.22 | 0.23 | 0.07 |
| 63 | A423 | 0.11 | -0.07 | 0.03 |
| 64 | A360 | 0.04 | -0.39 | 0.16 |
| 65 | 500 | -0.07 | -0.09 | -0.14 |
| 66 | U61 | 0.27 | 0.19 | 0.10 |
| 67 | U373 | -0.11 | 0.02 | 0.03 |
| 68 | G400 | 0.05 | 0.02 | -0.03 |
| 69 | G344 | 0.02 | -0.61 | -0.23 |
| 70 | 505 | -0.01 | 0.11 | 0.12 |
| 71 | 449 | 0.13 | 0.05 | -0.09 |